Source: patent publication US10029984B2, “Mono- or di-substituted indole derivatives as dengue viral replication inhibitors” (Janssen Pharmaceuticals, Inc., priority 2015, dated 2018)

Tested on: DENV-2 16681 strain
Assay: DENV-2 antiviral assay (eGFP-labeled virus in Vero cells)
Format: cell-based, Dengue virus
Conditions: SI=CC50/EC50, DENV-2 antiviral assay
Procedure: The antiviral activity of all the compounds of the invention was tested against DENV-2 16681 strain which was labeled with enhanced green fluorescent protein (eGPF; Table 1). The culture medium consists of minimal essential medium supplemented with 2% of heat-inactivated fetal calf serum, 0.04% gentamycin (50 mg/mL) and 2 mM of L-glutamine. Vero cells, obtained from ECACC, were suspended in culture medium and 25 μL was added to 384-well plates (2500 cells/well), which already contain the antiviral compounds. Typically, these plates contain a 4-fold serial dilution of 9 dilution steps of the test compound at 200 times the final concentration in 100% DMSO (200 nL). In addition, each compound concentration is tested in quadruplicate (final concentration range: 25 μM-0.00038 μM). Finally, each plate contains wells which are assigned as virus controls (containing cells and virus in the absence of compound), cell controls (containing cells in the absence of virus and compound) and medium controls (containing medium in the absence of cells, virus and compounds). To the wells assigned as medium control, 25 μL of culture medium was added instead of Vero cells. Once the cells were added to the plates, the plates were incubated for 30 minutes at room temperature to allow the cells to distribute evenly within the wells. Next, the plates were incubated in a fully humidified incubator (37° C., 5% CO2) until the next day. Then, DENV-2 strain 16681, labeled with eGFP, was added at a multiplicity of infection (MOI) of 0.5. Therefore, 15 μL of virus suspension was added to all the wells containing test compound and to the wells assigned as virus control. In parallel, 15 μL of culture medium was added to the medium and cell controls. Next, the plates were incubated for 3 days in a fully humidified incubator (37° C., 5% CO2). At the day of the read out, the eGFP fluorescence was measured using an automated fluorescence microscope at 488 nm (blue laser). Using an in-house LIMS system, inhibition dose response curves for each compound were calculated and the half maximal effective concentration (EC50) was determined. Therefore, the percent inhibition (I) for every test concentration is calculated using the following formula: I=100*(ST−SCC)/(SVC−SCC); ST, SCC and SVC are the amount of eGFP signal in the test compound, cell control and virus control wells, respectively. The EC50 represents the concentration of a compound at which the virus replication is inhibited with 50%, as measured by a 50% reduction of the eGFP fluorescent intensity compared to the virus control. The EC50 is calculated using linear interpolation.

SMILES: COc1cc(NC(C(=O)c2c[nH]c3c(C)c(Cl)ccc23)c2ccc(F)cc2OC)cc(S(C)(=O)=O)c1 (racemic) [Compound 3, 1-(6-chloro-7-methyl-1H-indol-3-yl)-2-(4-fluoro-2-methoxyphenyl)-2-((3-methoxy-5-(methylsulfonyl)phenyl)amino)ethanone]
- SI: 10845

SMILES: COc1cc(NC(C(=O)c2c[nH]c3c(F)c(F)ccc23)c2ccc(F)cc2OC)cc(S(C)(=O)=O)c1 (single isomer, unassigned) [Enantiomer 13A, 1-(6,7-difluoro-1H-indol-3-yl)-2-(4-fluoro-2-methoxyphenyl)-2-((3-methoxy-5-(methylsulfonyl)phenyl)amino)ethanone]
- SI (listed as 13A): 484

SMILES: COc1cc(NC(C(=O)c2c[nH]c3cc(OC)c(Cl)cc23)c2ccc(F)cc2OC)cc(S(C)(=O)=O)c1 (single isomer, unassigned) [Enantiomer 16B, 1-(5-chloro-6-methoxy-1H-indol-3-yl)-2-(4-fluoro-2-methoxyphenyl)-2-((3-methoxy-5-(methylsulfonyl)phenyl)amino)ethanone]
- SI (listed as 16B): 1692

SMILES: COc1cc(NC(C(=O)c2c[nH]c3ccc(C)cc23)c2ccc(F)cc2OC)cc(S(C)(=O)=O)c1 (single isomer, unassigned) [Enantiomer 15B, 2-(4-fluoro-2-methoxyphenyl)-2-((3-methoxy-5-(methylsulfonyl)phenyl)amino)-1-(5-methyl-1H-indol-3-yl)ethanone]
- SI (listed as 15B): 196

SMILES: COc1cc(NC(C(=O)c2c[nH]c3cc(F)c(F)cc23)c2ccc(F)cc2OC)cc(S(C)(=O)=O)c1 (racemic) [Compound 7, 1-(5,6-difluoro-1H-indol-3-yl)-2-(4-fluoro-2-methoxyphenyl)-2-((3-methoxy-5-(methylsulfonyl)phenyl)amino)ethanone]
- SI: 3411

SMILES: COc1cc(NC(C(=O)c2c[nH]c3ccc(OC(F)(F)F)cc23)c2ccc(F)cc2OC)cc(S(C)(=O)=O)c1 (single isomer, unassigned) [Enantiomer 18B, 2-(4-fluoro-2-methoxyphenyl)-2-((3-methoxy-5-(methylsulfonyl)phenyl)amino)-1-(5-(trifluoromethoxy)-1H-indol-3-yl)ethanone]
- SI (listed as 18B): 1132

SMILES: COc1cc(NC(C(=O)c2c[nH]c3c(F)cc(C)cc23)c2ccc(F)cc2OC)cc(S(C)(=O)=O)c1 (single isomer, unassigned) [Enantiomer 6B, 2-(4-fluoro-2-methoxyphenyl)-1-(7-fluoro-5-methyl-1H-indol-3-yl)-2-((3-methoxy-5-(methylsulfonyl)phenyl)amino)ethanone]
- SI (listed as 6B): 67

SMILES: COc1cc(NC(C(=O)c2c[nH]c3cc(OC)ccc23)c2ccc(F)cc2OC)cc(S(C)(=O)=O)c1 (single isomer, unassigned) [Enantiomer 5A, 2-(4-fluoro-2-methoxyphenyl)-1-(6-methoxy-1H-indol-3-yl)-2-((3-methoxy-5-(methylsulfonyl)phenyl)amino)ethanone]
- SI (listed as 5A): 530

SMILES: COc1cc(NC(C(=O)c2c[nH]c3c(C)cc(F)cc23)c2ccc(F)cc2OC)cc(S(C)(=O)=O)c1 (single isomer, unassigned) [Enantiomer 8B, 2-(4-fluoro-2-methoxyphenyl)-1-(5-fluoro-7-methyl-1H-indol-3-yl)-2-((3-methoxy-5-(methylsulfonyl)phenyl)amino)ethanone]
- SI (listed as 8B): 45

SMILES: COc1cc(NC(C(=O)c2c[nH]c3c(C)c(Cl)ccc23)c2ccc(F)cc2OC)cc(S(C)(=O)=O)c1 (single isomer, unassigned) [Enantiomer 3B, 1-(6-chloro-7-methyl-1H-indol-3-yl)-2-(4-fluoro-2-methoxyphenyl)-2-((3-methoxy-5-(methylsulfonyl)phenyl)amino)ethanone]
- SI (listed as 3B): 324

SMILES: COc1cc(NC(C(=O)c2c[nH]c3cc(OC)c(C)cc23)c2ccc(F)cc2OC)cc(S(C)(=O)=O)c1 (racemic) [Compound 10, 2-(4-fluoro-2-methoxyphenyl)-2-((3-methoxy-5-(methylsulfonyl)phenyl)amino)-1-(6-methoxy-5-methyl-1H-indol-3-yl)ethanone]
- SI: 7070

SMILES: COc1cc(NC(C(=O)c2c[nH]c3cc(F)c(C)cc23)c2ccc(F)cc2OC)cc(S(C)(=O)=O)c1 (single isomer, unassigned) [Enantiomer 14B, 2-(4-fluoro-2-methoxyphenyl)-1-(6-fluoro-5-methyl-1H-indol-3-yl)-2-((3-methoxy-5-(methylsulfonyl)phenyl)amino)ethanone]
- SI (listed as 14B): 262

SMILES: COc1cc(NC(C(=O)c2c[nH]c3c(C)c(F)ccc23)c2ccc(F)cc2OC)cc(S(C)(=O)=O)c1 (racemic) [Compound 2, 2-(4-fluoro-2-methoxyphenyl)-1-(6-fluoro-7-methyl-1H-indol-3-yl)-2-((3-methoxy-5-(methylsulfonyl)phenyl)amino)ethanone]
- SI: 6338

SMILES: COc1cc(NC(C(=O)c2c[nH]c3ccc(OC(F)(F)F)cc23)c2ccc(F)cc2OC)cc(S(C)(=O)=O)c1 (racemic) [Compound 18, 2-(4-fluoro-2-methoxyphenyl)-2-((3-methoxy-5-(methylsulfonyl)phenyl)amino)-1-(5-(trifluoromethoxy)-1H-indol-3-yl)ethanone]
- SI: >15249

SMILES: COc1cc(NC(C(=O)c2c[nH]c3ccc(C(F)(F)F)cc23)c2ccc(F)cc2OC)cc(S(C)(=O)=O)c1 (single isomer, unassigned) [Enantiomer 17A, 2-(4-fluoro-2-methoxyphenyl)-2-((3-methoxy-5-(methylsulfonyl)phenyl)amino)-1-(5-(trifluoromethyl)-1H-indol-3-yl)ethanone]
- SI (listed as 17A): 353

SMILES: COc1cc(NC(C(=O)c2c[nH]c3cc(OC)c(Cl)cc23)c2ccc(F)cc2OC)cc(S(C)(=O)=O)c1 (racemic) [Compound 16, 1-(5-chloro-6-methoxy-1H-indol-3-yl)-2-(4-fluoro-2-methoxyphenyl)-2-((3-methoxy-5-(methylsulfonyl)phenyl)amino)ethanone]
- SI: 13287

SMILES: COc1cc(NC(C(=O)c2c[nH]c3c(C)c(F)ccc23)c2ccc(F)cc2OC)cc(S(C)(=O)=O)c1 (single isomer, unassigned) [Enantiomer 2B, 2-(4-fluoro-2-methoxyphenyl)-1-(6-fluoro-7-methyl-1H-indol-3-yl)-2-((3-methoxy-5-(methylsulfonyl)phenyl)amino)ethanone]
- SI (listed as 2B): 146

SMILES: COc1cc(NC(C(=O)c2c[nH]c3ccc(C(F)(F)F)cc23)c2ccc(F)cc2OC)cc(S(C)(=O)=O)c1 (racemic) [Compound 17, 2-(4-fluoro-2-methoxyphenyl)-2-((3-methoxy-5-(methylsulfonyl)phenyl)amino)-1-(5-(trifluoromethyl)-1H-indol-3-yl)ethanone]
- SI: 19799

SMILES: COc1cc(NC(C(=O)c2c[nH]c3cc(Cl)ccc23)c2ccc(F)cc2OC)cc(S(C)(=O)=O)c1 (racemic) [Compound 4, 1-(6-chloro-1H-indol-3-yl)-2-(4-fluoro-2-methoxyphenyl)-2-((3-methoxy-5-(methylsulfonyl)phenyl)amino)ethanone]
- SI: 6211

SMILES: COc1cc(NC(C(=O)c2c[nH]c3c(F)c(F)ccc23)c2ccc(F)cc2OC)cc(S(C)(=O)=O)c1 (racemic) [Compound 13, 1-(6,7-difluoro-1H-indol-3-yl)-2-(4-fluoro-2-methoxyphenyl)-2-((3-methoxy-5-(methylsulfonyl)phenyl)amino)ethanone]
- SI: 5298
